{"source": "ChEMBL document CHEMBL5236607", "about": "“Membrane-Active Cyclic Amphiphilic Peptides: Broad-Spectrum Antibacterial Activity Alone and in Combination with Antibiotics” (J Med Chem, 2022)", "system": "Escherichia coli", "test": "Induction of resistance development in Escherichia coli ATCC 25922 assessed as increase in MIC by microtiter plate reader assay", "assay_type": "functional, organism-based", "outline": "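Serial passage resistance assay with 2-fold microdilution MICs in 96-well plates. Each passage takes the well with the highest concentration still permitting growth, adjusts it to 0.5 McFarland, and dilutes it to a final 5 × 10^5 CFU/mL for the next passage. Eighteen passages; MIC recorded at each. Triplicate.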", "note": "Active and inactive are the calls of the source. The calls are words filed in the database; no cut-off is given here.", "data": [{"molecule": "O=C(O)c1cn(C2CC2)c2cc(N3CCNCC3)c(F)cc2c1=O", "values": [{"measurement": "Activity", "value": "Active"}]}]}
